{"source": "patent US20240300940A1", "about": "“Phenothiazinyl Compounds and Uses” (Prosetta Biosciences, Inc., priority 2023, published 2024)", "test_system": "bacteria which are resistant to different class of antibiotics and MDR S. aureus", "assay": "Cross resistance test (MIC), summary", "data": [{"smiles": "CC1(C)C2CN(c3ccc4nc5ccc(N6CC7C(C6)C7(C)C)cc5[s+]c4c3)CC21", "note": "(stereo not shown) [Compound 1, 3,7-Di(6,6-dimethyl-3-azabicyclo[3.1.0]hexan-N-yl)phenothiazinium iodide]", "values": [{"measurement": "MIC range", "value": "0.25 to 0.5", "unit": "µg/mL"}]}]}
